Measured values as given in PMC6016246.
For at least one entry, the source does not settle the construct or the ends of the probe. At least one verdict was read from the data and is not stated in words by the source.

Target: Rv0078 (UniProt O53623)
Test: EMSA
Conditions: room temperature 30 min, buffer not stated, recombinant protein, protein details: C-terminal His6, label: 5'-IRDye700 on S21, letters put together from the description

## GTACATTTACAAGCAGACTGCCGGTAACTTACCCCAGACCAGGGCAC / GTGCCCTGGTCTGG / GGTAAGTTACCGGCAGTCTGCTTGTAAATGTAC [+19/-14 (WT)]
  binding result: binds
